Results as given in patent US7087375B1, “Method for determining the mechanism of HIV RT inhibitors” (priority 2000, dated 2006).
Where two headings read alike, the source gives them in different places.

Columns and labels:
[1] = molecular target: HIV-1 RT mutant 41/67/70/215 (Human immunodeficiency virus type 1 group M subtype B, UniProt P04585, D654N/K657R/M628L/T802Y); details: 41/67/70/215 RT; ATP […]
[2] = molecular target: HIV-1 RT mutant M41L, T69S-SG, L210W, R211K, L214F, T215Y (Human immunodeficiency virus type 1 group M subtype B, UniProt P04585, L797W/L801F/M628L/R798K/T656S/T802Y)
[3] = molecular target: HIV-1 RT mutant M41L, T69S-AG, L210W, R211K, L214F, T215Y (Human immunodeficiency virus type 1 group M subtype B, UniProt P04585, L797W/L801F/M628L/R798K/T656S/T802Y)

SMILES	Fold resistance in RT-assay relative to HXB2 [1]	Fold resistance with ATP (RT assay) ([2]; ATP 3.2 mM) [fold]	Ki ([2]; ATP 3.2 mM) [nM]	Ki/Km ([2]; ATP 3.2 mM)	Fold resistance (RT assay) ([2]; without ATP) [fold]	Ki ([2]; without ATP) [nM]	Ki/Km ([2]; without ATP)	Fold resistance with ATP (RT assay) ([3]; ATP 3.2 mM)	Ki ([3]; ATP 3.2 mM) [nM]	Ki/Km ([3]; ATP 3.2 mM)	Fold resistance (RT assay) ([3]; without ATP)	Ki ([3]; without ATP) [nM]	Ki/Km ([3]; without ATP)
Cc1cn([C@H]2C[C@H](N=[N+]=[N-])[C@@H](CO[P@](=O)(O)O[P@](=O)(O)OP(=O)(O)O)O2)c(=O)[nH]c1=O	5.0 (+/−1) fold	–	–	–	–	–	–	–	–	–	–	–	–
Cc1cn([C@H]2C=C[C@@H](COP(=O)(O)OP(=O)(O)OP(=O)(O)O)O2)c(=O)[nH]c1=O	–	8.1	14.7	0.08	1.4	0.9	0.011	11.7 +/− 1.4 fold	27	0.117	1.2 +/− 0.3 fold	1.3	0.01
